Human monoclonal antibodies against the spike receptor-binding domain (heavy:light variable regions). IC50 against pseudoviruses bearing the spike of naturally observed variants; lower = stronger; >10 µg/ml means not reached at the top dose. No active / inactive call. The stated detection limit is 0.0005 µg/ml; values near or below 0.001 µg/ml lie at the floor of the assay.
B1: BD57-059 (protein)
chain 1: QVHLVQSGAEVKPPGSSVKVSCKASGGTFITYGINWVRQAPGQGLEWMGRIIPILGIPDYAQKFQGRVTITADKPTSTAYMELSSLKSEDTAVYYCATLGQQPYNNYGLGHYYYMDVWGKGTTVTVSS
chain 2: DIQMTQSPSSLSASVGDRVTITCRASQGIDNWLAWYQQKPEGAPKSLIYDATSLQSGVPSRFSGSGSGTDFTLTISSLQPEDFATYYCQQYNSYPVTFGGGTKVEIK
B2: BD57-063 (protein)
chain 1: ELQLVDSGGGLVQPGRSLRLSCVASGFTFDEYAMHWVRQGPGKGLEWVSGISWNSGRIAYADSVKGRFTISRDNAENSLHLQMNSLRAEDTAFYYCAKGYCGGDCYSGLLDWYFDLWGRGTLVTVSS
chain 2: QSALTQPASVSGSPGQSITISCTGTSSDVGDYNYVSWYQQHPGKAPKLLIYDVNTRPSGVSNRFSGSKSGNTASLTISGLQAEDESDYFCSSYRSSSTLVFGGGTKLTVL
B3: BD57-056 (protein)
chain 1: EVQLVESGGGLVQPGRSLRLSCAASGFTFEDNAMHWVRQAPGKGLEWVSGISKHSAAIEYVDSVKGRFTISRDDAKNSLYLQMNRLRAEDTALYHCVKGSWDIAMVVSAAAPDYVLDMWGQGTMVTVSS
chain 2: DIQMTQSPSSLSASVGDRVTITCRASQSIGNYLNWYQQKPGKAPNLLIYAASNLQSGVASRFSGSGSGTDFTLSISGLQPEDFATYYCQQSYSTPLTFGGGTRVEIK
B4: BD57-054 (protein)
chain 1: QVQLVQSGAEVRKPGSSVKVSCKASGGTFSSYAITWVRQAPGQGLEWMGRIIPMLGVAIFAQKFLDRVTLTADKSTDTAYMELTGLRYEDTAVYFCARDPRPIVVVAVPFGMDVWGQGTTVTVSS
chain 2: DIVMTQSPLSLSVTPGESASISCRSSESLLQSDGNNYLDWYLQKPGQSPQLLIYSGSVRASGVPDRISGSGSGTDFTLKISRVEAEDVGVYYCMQALQAPPYTFGQGTKLE
B5: BD57-061 (protein)
chain 1: QVQLVQSGAEVKKPGASVKVSCKASGYTFISYHIHWVRQAPGQGLEWMGIINPSGGSTSYAQKFQGRVTMTRDTSTSTVYMEVSSLRSEDTAMYYCARSTYYSDSSGISWYYFDYWGQGTLVTVSS
chain 2: QSVLTQPPSVSGAPGQRVTISCTGSSSNIGAGYDVHWYQLLPGTAPKLLIYGNRNRPSGVPDRFSGSKSGTSASLAITGLQAEDEAAYYCQAYDSSLTGSVFGGGTKLTVL
B6: BD57-060 (protein)
chain 1: EVQLVESGGGLVQPGRSLRLSCEASGFTFDDYAMHWVRQAPGKGLEWVSGTTYNSGTIGYADSVKGRFTISRDNAKNSLYLQINSLRPEDTALYHCAKDIYLGYSSGPEIYAFDIWGQGTMVTVSS
chain 2: SYVLTQSPSVSVAPGKTARITCGGNNIGSKSVHWYQQKPGQAPVLVVYDGGGRPSGIPERFSDSSSGNTATLTISRVEAGDEADYYCQVWDGSSDHVVFGGGTKLTVL

molecular target: SARS-CoV-2 Omicron BA.1 spike pseudovirus; assay: pseudovirus neutralization IC50; higher = weaker neutralization
Experimental: (§1)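 Single-round VSV luciferase pseudovirus mixed with antibody dilutions for 1 h and put on Huh-7 cells for about a day; IC50 from the dose curve.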

Compared with B1, B2 is 47-fold higher in “pseudovirus neutralization IC50” value: 0.0143 µg/mL for the first, 0.673 µg/mL for the second.

First: B3
Second: B4
The “pseudovirus neutralization IC50” value of the first is 6.2-fold lower: 0.00111 µg/mL for the first, 0.00687 µg/mL for the second.

Compared with B5, B6 is 4.2-fold lower in “pseudovirus neutralization IC50” value: 0.391 µg/mL for the first, 0.0938 µg/mL for the second.

molecular target: SARS-CoV-2 Omicron BA.2 spike pseudovirus; assay: as above
Experimental: as §1

Compared with B1, B2 is 48-fold higher in “pseudovirus neutralization IC50” value: 0.0177 µg/mL for the first, 0.846 µg/mL for the second.

B3 and B4 are within 1.5-fold of each other in “pseudovirus neutralization IC50” value: 0.00125 µg/mL for the first, 0.00101 µg/mL for the second.

First: B5
Second: B6
The “pseudovirus neutralization IC50” value of the first is 20-fold lower: 0.00438 µg/mL for the first, 0.0887 µg/mL for the second.

molecular target: SARS-CoV-2 Omicron BA.2.75 spike pseudovirus; assay: as above
Experimental: as §1

First: B1
Second: B2
The “pseudovirus neutralization IC50” value of the first is 490-fold lower: 0.00975 µg/mL for the first, 4.82 µg/mL for the second.

Compared with B3, B4 is 6-fold higher in “pseudovirus neutralization IC50” value: 0.00105 µg/mL for the first, 0.00634 µg/mL for the second.

Going from B5 to B6, the “pseudovirus neutralization IC50” value falls from 0.343 µg/mL to 0.0704 µg/mL (4.9-fold).

molecular target: SARS-CoV-2 Omicron BA.5 spike pseudovirus; assay: as above
Experimental: as §1

Going from B1 to B2, the “pseudovirus neutralization IC50” value rises from 0.0872 µg/mL to 4.01 µg/mL (46-fold).

First: B3
Second: B4
The “pseudovirus neutralization IC50” value of the first is 46-fold lower: 0.12 µg/mL for the first, 5.49 µg/mL for the second.

Going from B5 to B6, the “pseudovirus neutralization IC50” value rises from 0.0104 µg/mL to 0.241 µg/mL (23-fold).

molecular target: SARS-CoV-2 Omicron BQ.1.1 spike pseudovirus; assay: as above
Experimental: as §1

Compared with B1, B2 is lower in “pseudovirus neutralization IC50” value: > 10 µg/mL for the first, 4.74 µg/mL for the second.

Going from B3 to B4, the “pseudovirus neutralization IC50” value rises from 0.0756 µg/mL to > 10 µg/mL.

Going from B5 to B6, the “pseudovirus neutralization IC50” value rises from 0.0116 µg/mL to > 10 µg/mL.

molecular target: SARS-CoV-2 Omicron XBB spike pseudovirus; assay: as above
Experimental: as §1

Compared with B1, B2 is lower in “pseudovirus neutralization IC50” value: > 10 µg/mL for the first, 6.25 µg/mL for the second.

Going from B3 to B4, the “pseudovirus neutralization IC50” value rises from 0.171 µg/mL to > 10 µg/mL.

B5 and B6 cannot be ordered by “pseudovirus neutralization IC50” value: > 10 µg/mL for the first, > 10 µg/mL for the second.

molecular target: SARS-CoV-2 early D614G spike pseudovirus; assay: as above
Experimental: as §1

Compared with B1, B2 is 33-fold higher in “pseudovirus neutralization IC50” value: 0.022 µg/mL for the first, 0.736 µg/mL for the second.

B3 and B4 are within 1.5-fold of each other in “pseudovirus neutralization IC50” value: 0.00303 µg/mL for the first, 0.00335 µg/mL for the second.

First: B5
Second: B6
The “pseudovirus neutralization IC50” value of the first is 12-fold lower: 0.00152 µg/mL for the first, 0.0176 µg/mL for the second.
